Compound potency records, mixed from different reports. Data source: NIAID ChemDB in PubChem.

Common to all: whole-cell or culture tests; species: Mycobacterium avium intracellulare; read-out: MIC

Rows are shuffled and stem from different studies.

structure | strain | result
CN[C@@H]1[C@H](O[C@H]2[C@H](O[C@H]3[C@H](O)[C@@H](O)[C@H](N=C(N)N)[C@@H](O)[C@@H]3N=C(N)N)O[C@@H](C)[C@]2(O)C=O)O[C@@H](CO)[C@H](O)[C@H]1O | CIPT 140310023 | >50 µg/mL
OCCN1CCN(CCC=C2c3ccccc3Sc3ccc(Cl)cc32)CC1 | T 7360 | 12.5 µg/mL
CCCO/N=C1\[C@H](C)CC(C)(O)[C@H](O[C@@H]2O[C@H](C)C[C@H](N(C)C)[C@H]2O)[C@@H](C)[C@H](OC2C[C@@](C)(OC)[C@@H](O)[C@H](C)O2)[C@@H](C)C(=O)O[C@H](CC)[C@@](C)(O)[C@H](O)[C@H]1C | 20066 (clarithromycin-susceptible) | 3.13 µg/mL
CC[C@H]1OC(=O)[C@H](C)[C@@H](O[C@H]2C[C@@](C)(OC)[C@@H](OC(C)=O)[C@H](C)O2)[C@H](C)[C@@H](OC2O[C@H](C)C[C@H](N(C)C)[C@H]2OC(=O)NC)C(C)(O)C[C@@H](C)/C(=N\OCCCC2CCCCC2)[C@H](C)[C@@H](O)[C@]1(C)O | 20075 | 3.13 µg/mL
CC(=O)NC[C@H]1CN(c2ccc(N3CCN(c4ccc([N+](=O)[O-])s4)CC3)c(F)c2)C(=O)O1 | 19/97 | 0.25 µg/mL
CC[C@H]1OC(=O)[C@H](C)[C@@H](O[C@H]2C[C@@](C)(OC)[C@@H](OC(C)=O)[C@H](C)O2)[C@H](C)[C@@H](O[C@@H]2O[C@H](C)C[C@H](N(C)C)[C@H]2OC(=O)NNCCCc2ccccc2)C(C)(O)C[C@@H](C)/C(=N\OCCCC2CCCCC2)[C@H](C)[C@@H](O)[C@]1(C)O | 20066 (clarithromycin-susceptible) | 0.78 µg/mL
C[C@@H]1CN(c2c(F)c(N)c3c(=O)c(C(=O)O)cn(C4CC4)c3c2F)C[C@H](C)N1 | N-846 (HIV-) | 16 µg/mL
CC[C@H]1OC(=O)[C@H](C)[C@@H](O[C@H]2C[C@@](C)(OC)[C@@H](OC(C)=O)[C@H](C)O2)[C@H](C)[C@@H](OC2O[C@H](C)C[C@H](N(C)C)[C@H]2OC(=O)NCC(=O)NC)C(C)(O)C[C@@H](C)/C(=N\OCCCC2CCCCC2)[C@H](C)[C@@H](O)[C@]1(C)O | 20073 | 1.56 µg/mL
CCCCCCO/N=C1\[C@H](C)CC(C)(O)[C@H](O[C@@H]2O[C@H](C)C[C@H](N(C)C)[C@H]2O)[C@@H](C)[C@H](OC2C[C@@](C)(OC)[C@@H](O)[C@H](C)O2)[C@@H](C)C(=O)O[C@H](CC)[C@@](C)(O)[C@H](O)[C@H]1C | 20066 (clarithromycin-susceptible) | 3.13 µg/mL
COc1ccc2c(c1)N(C[C@H](C)CN(C)C)c1ccccc1S2 | R 8588 | 50 µg/mL
CCCCNC(=O)O[C@H]1C(O[C@@H]2[C@@H](C)[C@H](O[C@H]3C[C@@](C)(OC)[C@@H](OC(C)=O)[C@H](C)O3)[C@@H](C)C(=O)O[C@H](CC)[C@@](C)(O)[C@H](O)[C@@H](C)/C(=N/OCCCC3CCCCC3)[C@H](C)CC2(C)O)O[C@H](C)C[C@@H]1N(C)C | 20073 | 0.2 µg/mL
CCCCCCCCC(=O)O[C@H]1[C@H](C)OC(O[C@H]2[C@H](C)[C@@H](O[C@@H]3O[C@H](C)C[C@H](N(C)C)[C@H]3O)C(C)(O)C[C@@H](C)/C(=N\OCCCOc3ccccc3)[C@H](C)[C@@H](O)[C@](C)(O)[C@@H](CC)OC(=O)[C@@H]2C)C[C@@]1(C)OC | 20066 (clarithromycin-susceptible) | 0.39 µg/mL
CO[C@H]1/C=C/O[C@@]2(C)Oc3c(C)c(O)c4c(O)c(c5c(c4c3C2=O)NC2(CCN(CC(C)C)CC2)N=5)=NC(=O)/C(C)=C\C=C\[C@H](C)[C@H](O)[C@@H](C)[C@@H](O)[C@@H](C)[C@H](OC(C)=O)[C@@H]1C | N-919 (HIV-) | 0.0313 µg/mL
CC1(C)S[C@@H]2[C@H](NC(=O)C(C(=O)O)c3ccccc3)C(=O)N2[C@H]1C(=O)O | CIPT 140310023 | 50 µg/mL
CC[C@H]1OC(=O)[C@H](C)[C@@H](O[C@H]2C[C@@](C)(OC)[C@@H](OC(C)=O)[C@H](C)O2)[C@H](C)[C@@H](O[C@@H]2O[C@H](C)C[C@H](N(C)C)[C@H]2OC(=O)NNCc2ccc([N+](=O)[O-])cc2)C(C)(O)C[C@@H](C)/C(=N\OCCCC2CCCCC2)[C@H](C)[C@@H](O)[C@]1(C)O | 20066 (clarithromycin-susceptible) | 0.78 µg/mL
OCCN1CCN(CC/C=C2\c3ccccc3Sc3ccc(C(F)(F)F)cc32)CC1 | E 48067 | 12.5 µg/mL
CC[C@H]1OC(=O)[C@H](C)[C@@H](O[C@H]2C[C@@](C)(OC)[C@@H](OC(C)=O)[C@H](C)O2)[C@H](C)[C@@H](OC2O[C@H](C)C[C@H](N(C)C)[C@H]2OC(=O)NCCCCCCCCCCCCCCN(C)C)C(C)(O)C[C@@H](C)/C(=N\OCCCC2CCCCC2)[C@H](C)[C@@H](O)[C@]1(C)O | 20067 | 0.78 µg/mL
CN(C)CCCN1c2ccccc2Sc2ccc(Cl)cc21 | R 6550 | 25 µg/mL
CO[C@H]1/C=C/O[C@@]2(C)Oc3c(C)c(O)c4c(=O)c(c5oc6cc(N7CCN(CC(C)C)CC7)cc(=O)c6nc5c4c3=C2O)NC(=O)/C(C)=C\C=C\[C@H](C)[C@H](O)[C@@H](C)[C@@H](O)[C@@H](C)[C@H](OC(C)=O)[C@@H]1C | N-475 (HIV-) | ≤0.0125 µg/mL
CC1(C)S[C@@H]2[C@H](NC(=O)[C@H](C(=O)[O-])c3ccsc3)C(=O)N2[C@H]1C(=O)[O-].[Na+].[Na+] | CIPT 140310030 | 50 µg/mL
CC[C@H]1OC(=O)[C@H](C)[C@@H](OC2C[C@@](C)(OC)[C@@H](O)[C@H](C)O2)[C@H](C)[C@@H](O[C@@H]2O[C@H](C)C[C@H](N(C)C)[C@H]2O)C(C)(O)C[C@@H](C)/C(=N\OCCSc2ccccc2)[C@H](C)[C@@H](O)[C@]1(C)O | 20066 (clarithromycin-susceptible) | 3.13 µg/mL
C[C@@H](O)[C@H]1C(=O)N2C(C(=O)O)=C(SCCN=CN)C[C@H]12 | CIPT 140310054 | >10 µg/mL
CO[C@H]1/C=C/O[C@@]2(C)Oc3c(C)c(O)c4c(O)c(c(/C=N/N5CCN(C6CCCC6)CC5)c(O)c4c3C2=O)NC(=O)/C(C)=C\C=C\[C@H](C)[C@H](O)[C@@H](C)[C@@H](O)[C@@H](C)[C@H](OC(C)=O)[C@@H]1C | 16-Feb | 0.25 µg/mL
CCCCCCCCO/N=C1\[C@H](C)CC(C)(O)[C@H](O[C@@H]2O[C@H](C)C[C@H](N(C)C)[C@H]2O)[C@@H](C)[C@H](OC2C[C@@](C)(OC)[C@@H](O)[C@H](C)O2)[C@@H](C)C(=O)O[C@H](CC)[C@@](C)(O)[C@H](O)[C@H]1C | 20066 (clarithromycin-susceptible) | 6.25 µg/mL
Clc1ccc2c(c1)nc1cc(Nc3ccccc3)c(=NC3CCCCC3)cc-1n2-c1ccccc1 | P39 | 2 µg/mL
NNC(=O)c1ccncc1 | N-475 (HIV-) | 2 µg/mL

Repeating the first 2 entries:

structure | strain | result
CN[C@@H]1[C@H](O[C@H]2[C@H](O[C@H]3[C@H](O)[C@@H](O)[C@H](N=C(N)N)[C@@H](O)[C@@H]3N=C(N)N)O[C@@H](C)[C@]2(O)C=O)O[C@@H](CO)[C@H](O)[C@H]1O | CIPT 140310023 | >50 µg/mL
OCCN1CCN(CCC=C2c3ccccc3Sc3ccc(Cl)cc32)CC1 | T 7360 | 12.5 µg/mL